Test results from article PMC3207847, “Characterization of a Novel Type of HIV-1 Particle Assembly Inhibitor Using a Quantitative Luciferase-Vpr Packaging-Based Assay” (PLoS ONE, 2011).

Test system: HIV-1 VLP assembly and budding
Assay: Electron microscopy of AcMNPV-Gag-infected Sf9 cells and released particles
Format: cell-based
Conditions: 10 µg/ml for 24 h, m ± SD
Experimental: By contrast, control, untreated AcMNPV-Gag-infected Sf9 cells were decorated with VLP budding in abundance from the plasma membrane ( Fig. 8 , a; and also refer to [12], [28], [30], [32], [33], [53]).
Baculovirus-infected Sf9 cells were harvested at 48 h pi, pelleted, fixed with 2.5% glutaraldehyde in 0.1 M phosphate buffer, pH 7.5, post-fixed with osmium tetroxide (2% in H2O) and treated with 0.5% tannic acid solution in H2O. The specimens were dehydrated and embedded in Epon (Epon-812; Fulham, Latham, NY). Ultrathin sections were stained with 2.6% alkaline lead citrate and 0.5% uranyl acetate in 50% ethanol, and post-stained with 0.5% uranyl acetate solution in H2O [12], [28], [53]. Grids were examined under a Jeol JEM-1400 electron microscope, equiped with an ORIUS™ digitalized camera (Gatan France, 78113-Grandchamp). For statistical EM analyses, a minimum of 30 grid squares containing 10 to 20 cell sections each were examined for counting VLP budding at the cell surface, or budding in intracellular vesicular compartment.

## C=C(C)[C@@H]1CC[C@]2(C(=O)NCCN)CC[C@]3(C)C(CCC4[C@@]5(C)CC[C@H](OC(=O)CC(C)(C)C(=O)O)C(C)(C)C5CC[C@]43C)C12 (some centres unmarked) [EP-39, ethylene diamine-conjugated DSB]
N = 14
  Mean diameter of morula-like particles: 109.1±9.2 nm
N = 17
  Mean diameter of bead-shaped subunits (nanoparticles): 19.4±3.2 nm
